A mixed list of measured activities; the numbers were collected in NIAID ChemDB.

Common to all: whole-cell or culture tests; organism: HIV-1; endpoint: EC50

Rows are shuffled and stem from different studies. ECn: concentration that inhibits the pathogen or its effect by n%. Blank or dashed fields: not listed here.

structure | cell line | strain | changes | result
Nc1ncnc2c1ncn2O[C@@H]1CO[C@@H](CO)O1 | MT-4 | - | - | >100 µg/mL
COC(=O)[C@H](C)NP(=O)(OC[C@@H]1C=C[C@H](n2cc(C)c(=O)[nH]c2=O)O1)Oc1ccccc1 | CEM + CEM/O | IIIB | - | 0.085 µM
Nc1ncnc2c1ncn2O[C@@H]1CS[C@@H](CO)O1 | MT-4 | - | - | >100 µg/mL
C/C(=C\Cn1cnc2c(=O)[nH]c(N)nc21)CO | - | - | - | >100 µg/mL
Cc1ccc(-c2nnc3sc(C(CC(C)C)N4C(=O)c5ccccc5C4=O)nn23)cc1 | MT-4 | IIIB | - | >100 µM
COc1ccc(N(CC(=O)NCCCc2ccccc2)S(=O)(=O)c2ccc(Cl)c([N+](=O)[O-])c2)cc1 | - | IIIB | Q148R | 42 µM
Cc1cn([C@H]2C=C[C@@H](CO)O2)c(=O)[nH]c1=O | CEM + CEM-SS | LAI | - | 0.059 µM
O=c1[nH]cnc2c1ncn2C/C=C(/CO)c1ccccc1 | - | - | - | >100 µg/mL
CC(C)c1ccc(CS(=O)(=O)c2cccc[n+]2[O-])cc1 | CEM | IIIB | - | <40 µg/mL
CN1CN([C@H]2C[C@H](O)[C@@H](CO)O2)C(=O)N=C1N | MT-2 | LAI | - | 10 µM
C/C(=C\Cn1cnc2c(=O)[nH]cnc21)CO | - | - | - | 47.2 µg/mL
CC(=O)N[C@@H]1OC(CO[Si](C)(C)C(C)(C)C)C2(OS(=O)(=O)C=C2N)C1O[Si](C)(C)C(C)(C)C | MT-4 | - | - | >7.7 µM
Cc1cccc(-c2c3nc(c(-c4cccc(C)c4)c4ccc([nH]4)c(-c4cccc(C)c4)c4nc(c(-c5cccc(C)c5)c5ccc2[nH]5)C=C4)C=C3)c1 | PBMC | LAV | - | 0.05 µM
OCC(=CCn1cnc2c(Cl)ncnc21)CO | - | - | - | >100 µg/mL
CCCCC1(CCc2cccc(NS(=O)(=O)c3ccc(F)cc3)c2)COC(=O)C(C(CC)c2cccc(NS(=O)(=O)c3ccc(F)cc3)c2)=C1O | MT-4 | IIIB | - | 16.3 µM
Nc1ccn([C@@H]2O[C@H](CO)C=C2F)c(=O)n1 | - | xxBRU | - | 8 µM
C/C(=C\Cn1cnc2c(N)ncnc21)CO | - | - | - | >100 µg/mL
C=Cc1c(C)c2cc3[nH]c(cc4nc(cc5nc(cc1[nH]2)C(C)=C5CCC(=O)OC)C(CCC(=O)OC)=C4C)c(C)c3C=C | PBMC | LAV | - | 1.01 µM
Nc1ccn([C@H]2OC[C@@H](CO)[C@H]2O)c(=O)n1 | MT-4 | - | - | >100 µM
O=c1[nH]cnc2c1ncn2CC=C(CO)CO | - | - | - | >100 µg/mL
O=c1ccn([C@H]2C=C(CO)CO2)c(=O)[nH]1 | MT-4 | - | - | >100 µg/mL
CN(C[C@@H](CCN1CCC2(CC1)CS(=O)c1ccccc12)c1ccc(Cl)c(Cl)c1)S(=O)(=O)c1ccc(-c2ccccn2)s1 | PBMC | YU2 | - | <12.5 µM
CCCCC1(CCc2cccc(NS(=O)(=O)c3ccccn3)c2)COC(=O)C(C(CC)c2cccc(NS(=O)(=O)c3ccccn3)c2)=C1O | MT-4 | IIIB | - | 3.9 µM
Cc1ccc(-c2n[nH]c(=S)n2N)cc1 | MT-4 | IIIB | - | >100 µM
CCOP(=O)(CO[C@@]1(c2ccccc2)C[C@@H](n2cnc3c(N)ncnc32)[C@H](O)[C@@H]1O)OCC | - | - | - | >100 µM
C=C(C)C(=O)NC(=O)NC1OC(CO[Si](C)(C)C(C)(C)C)C2(OS(=O)(=O)C=C2N)C1O[Si](C)(C)C(C)(C)C | CEM + CEM/0 | - | - | >7 µM
Oc1cc(-c2ccc3cc(O)c(O)c(O)c3c2)cc(O)c1O | - | - | - | >1 µM
C[C@]1(Cn2cnc3c(=O)[nH]c(N)nc32)[C@@H](COCP(=O)(O)O)C1(F)F | MT-4 | RF | - | 26 µM
COc1ccc(-c2nnc(SC(c3ccccc3)c3ccccc3)n2N)cc1 | MT-4 | IIIB | - | >100 µM
C[C@]1(CO)[C@H](Cn2cnc3c(=O)[nH]c(N)nc32)C1(F)F | CEM | RF | - | >100 µM
Cc1cc(C)c(Nc2ccnc(Nc3ccc(C#N)cc3)n2)c(C)c1 | - | LAI | - | 0.0009 µM
COC[C@@H](c1ccc(C(F)(F)F)cc1)N1CCN(C2(C)CCN(C(=O)c3c(C)ncnc3C)CC2)C[C@@H]1C | PBMC | S | M518V F519L | 0.00013 µM
CN(C[C@@H](CCN1CCC2(CC1)CS(=O)(=O)c1ccccc12)c1ccc(Cl)c(Cl)c1)S(=O)(=O)c1ccccc1 | PBMC | YU2 | - | <12 µM
Cc1ccc(-c2nnc3sc(C(N)CC(C)C)nn23)cc1 | MT-4 | IIIB | - | >100 µM
Nc1ccn([C@H]2C[C@H]3OC[C@@H](O)[C@H]3O2)c(=O)n1 | MT-4 | - | - | >100 µM
C=C(COCP(=O)(O)O)Nn1cnc2c(N)ncnc21 | - | - | - | >10 µM
COc1ccc(-c2nnc(S[C@@H]3O[C@H](CO)[C@@H](O)[C@H](O)[C@H]3O)n2N)cc1 | MT-4 | NNRTI-resistant N119 | RT-Y181C | >100 µM
Cc1ccc(-c2c3nc(c(-c4ccc(C)cc4)c4ccc([nH]4)c(-c4ccc(C)cc4)c4nc(c(-c5ccc(C)cc5)c5ccc2[nH]5)C=C4)C=C3)cc1 | PBMC | LAV | - | 0.754 µM
C=C(C)[C@@H]1CC[C@]2(C(=O)O)CC[C@]3(C)[C@H](CC[C@@H]4[C@@]5(C)CC[C@H](OC(=O)CCCC(=O)OC[C@H]6OC(n7cc(C)c(=O)[nH]c7=O)C[C@@H]6N=[N+]=[N-])C(C)(C)[C@@H]5CC[C@]43C)[C@@H]12 | MT-4 | IIIB | - | 0.012 µM
Cc1ccc(OCCn2ccc(=O)[nH]c2=O)c(Cc2ccccc2)c1 | - | - | Y181C/K103N | 0.57 µM
O=c1[nH]c(=O)n([C@H]2C=C(CO)CO2)cc1Cl | MT-4 | - | - | >100 µg/mL
Nc1nc2c(ncn2O[C@H]2CO[C@@H](CO)O2)c(=O)[nH]1 | MT-4 | - | - | >100 µg/mL
Cc1cn([C@H]2C=C(CO)CO2)c(=O)[nH]c1=O | MT-4 | - | - | >100 µg/mL
CCCCC1(CCc2cccc(NS(=O)(=O)c3ccc(C#N)cc3)c2)COC(=O)C(C(CC)c2cccc(NS(=O)(=O)c3ccc(C#N)cc3)c2)=C1O | MT-4 | IIIB | - | 10.6 µM
Cc1ccc(-c2nnc3sc(CN)nn23)cc1 | MT-4 | IIIB | - | >100 µM
O=c1[nH]c(=O)n([C@H]2C=C(CO)CO2)cc1I | MT-4 | - | - | >100 µg/mL

For reference, 3 entries again:

structure	cell line	strain	changes	result
C=C(C)[C@@H]1CC[C@]2(C(=O)O)CC[C@]3(C)[C@H](CC[C@@H]4[C@@]5(C)CC[C@H](OC(=O)CCCC(=O)OC[C@H]6OC(n7cc(C)c(=O)[nH]c7=O)C[C@@H]6N=[N+]=[N-])C(C)(C)[C@@H]5CC[C@]43C)[C@@H]12	MT-4	IIIB	-	0.012 µM
OCC(=CCn1cnc2c(Cl)ncnc21)CO	-	-	-	>100 µg/mL
CCCCC1(CCc2cccc(NS(=O)(=O)c3ccccn3)c2)COC(=O)C(C(CC)c2cccc(NS(=O)(=O)c3ccccn3)c2)=C1O	MT-4	IIIB	-	3.9 µM